# Laboratory results reported in PubChem BioAssay AID1745856 (National Center for Advancing Translational Sciences (NCATS), 2022).
# This is a selection; strong and weak results do not stand in their true shares. Inconclusive results are not listed. Calls of active or inactive are those of the source. Calls come from the whole dose curve.
# Assay: Primary qHTS Assay for Foot and Mouth Disease Virus Antivirals against NCGC Sytravon and CBC Compound Libraries: Firefly Luciferase Signal; note: nearly all actives have a fitted effect of over 60% in size
# Details: FMDV antiviral cell assay; at 57.5 µM (top of the series) unless noted
# % is set by controls: 0 for no effect and ±100 for the full control effect.
row,SMILES,"activity change, negative = inhibition"
1,O=C(NCC1(N2CCCCC2)CCCCC1)c1c[nH]c2ccccc12,inactive: -10.7%
2,Cc1ccc(C(C)CCN(CCCl)CCCl)cc1 (stereo not given),inactive: -16.2%
3,CCCOc1ccccc1C(=O)NCC1(N2CCOCC2)CCCCC1,inactive: 2.51%
4,COc1ccccc1C(=O)NCC1(N2CCOCC2)CCCCC1,inactive: -13.5%
5,CN(C)C1(CNC(=O)c2nn(C)c(=O)c3ccccc23)CCCCC1,inactive: 15.3%
6,O=C(NCC1(N2CCOCC2)CCCCC1)c1ccc(Cl)cc1,inactive: -28.4%
7,Fc1ccc(CN2CCC(Nc3ccccc3Cl)CC2)cc1,inactive: -34%
8,CC1CN(CCc2ccccc2)CCC1=O (stereo not given),inactive: -0.725%
9,CCOC(=O)N1CCC(=O)CC1,inactive: -15%
10,O=C(NCC1(N2CCOCC2)CCCCC1)c1c[nH]c2ccccc12,inactive: -5.84%
11,O=C(NCC1(N2CCOCC2)CCCCC1)c1ccccc1Br,inactive: -11.3%
12,CCCCOc1ccccc1C(=O)NCC1(N2CCOCC2)CCCCC1,inactive: -19.9%
13,COc1ccccc1C(=O)NCC1(N(C)C)CCCCC1,inactive: -7.14%
14,CCc1cc(C(=O)NCC2(N3CCOCC3)CCCCC2)sc1C,inactive: -20%
15,CCCOc1cccc(C(=O)NCC2(N(C)C)CCCCC2)c1,inactive: 7.51%
16,CCCOc1cccc(C(=O)NCC2(N3CCOCC3)CCCCC2)c1,inactive: -22.8%
17,O=C(NCC1(N2CCOCC2)CCCCC1)c1cc2c(s1)CCCC2,inactive: -6.02%
18,CCOc1ccc(C(=O)NCC2(N3CCOCC3)CCCCC2)cc1,inactive: 5.43%
19,Brc1ccc(NC2CCN(Cc3cccc(Br)c3)CC2)cc1,inactive: -0.149%
20,O=C(NCC1(N2CCOCC2)CCCCC1)c1ccccc1,inactive: -7.4%

row,SMILES,"activity change, negative = inhibition"
1,O=C(NCC1(N2CCOCC2)CCCCC1)c1ccccc1[N+](=O)[O-],inactive: -13.6%
2,CC1C(=O)CCN(CCc2ccccc2)C1C (stereo not given),inactive: 2.03%
3,O=C(NCC1(N2CCOCC2)CCCCC1)c1ccc([N+](=O)[O-])cc1,inactive: -1.18%
4,Fc1ccc(CN2CCC(Nc3ccc(Br)cc3)CC2)cc1,inactive: -8.21%
5,Cc1cc(NC2CCN(Cc3ccccc3)CC2)ccc1Br,inactive: 7.13%
6,Cn1nc(C(=O)NCC2(N3CCOCC3)CCCCC2)c2ccccc2c1=O,inactive: 9.53%
7,O=C(NCC1(N2CCCCC2)CCCCC1)c1n[nH]c(=O)c2ccccc12,inactive: 8.54%
8,CCC(=O)N(c1ccccc1)C1CCNCC1,inactive: -7.67% [at 11.5 µM]
9,O=C(NCC1(N2CCOCC2)CCCCC1)c1n[nH]c(=O)c2ccccc12,inactive: 17.6%
10,COc1cc(C(=O)NCC2(N3CCOCC3)CCCCC2)cc(OC)c1OC,inactive: -2.21%
11,CCCOc1ccc(C(=O)NCC2(N(C)C)CCCCC2)cc1,inactive: -14.6%
12,Cc1ccc2oc(C(=O)NCC3(N4CCCCC4)CCCCC3)cc(=O)c2c1,inactive: 48.1%
13,CCCOc1ccccc1C(=O)NCC1(N(C)C)CCCCC1,inactive: 4.63%
14,Clc1ccccc1CN1CCC(Nc2ccc(Br)cc2)CC1,inactive: 17.9%
15,Cc1ccccc1C(=O)NCC1(N(C)C)CCCCC1,inactive: -13.1%
16,CC1CN(CCc2ccccc2)C(C)CC1=O (stereo not given),inactive: 0.454%
17,CC(C)(C)c1ccc(C(=O)NCC2(N3CCOCC3)CCCCC2)cc1,inactive: -14.8%
18,Cn1cc(C(=O)NCC2(N3CCOCC3)CCCCC2)c2ccccc21,inactive: -17.6%
19,CN(C)C1(CNC(=O)c2ccc(C(C)(C)C)cc2)CCCCC1,inactive: -9.24%
20,CN(C)C1(CNC(=O)c2cc3c(s2)CCC3)CCCCC1,inactive: 69.3%
